Residue numbers refer to the chain shown, from its start. Human monoclonal antibodies against the spike receptor-binding domain (heavy:light variable regions). IC50 against pseudoviruses bearing the spike of naturally observed variants; lower = stronger; >10 µg/ml means not reached at the top dose. No active / inactive call. The stated detection limit is 0.0005 µg/ml; values near or below 0.001 µg/ml lie at the floor of the assay.
B1: BD55-4286 (protein)
chain 1: EVQLVESGGGLVQPGGSLRLSCAASGFTFSRYPMHWVRQAPGMGLEYVSSITSNGVGRFYADSVKGRFTISRDNSKNTLYLQVGSLGAEDMAVYYCAREGRDTHGLYLDFWGQGTLVTVSS
chain 2: DIQMTQSPSSLSASVGDRVTITCRASQSINNYLNWYQQKPGKAPKLLIFATSTLHSGVPSRFSGSGSGTDFSLTITSLQPEDFATYYCQQSYITPTYTFGQGTKLEIK
B2: BD55-4351 (protein)
chain 1: QVQLVESGGGVVQPGRSLRLSCAASGFTFSDYGMHWVRQAPGKGLEWVAVISHDGSKKYYADSVKGRFTISRDNSKNTLYLQMNSLRAEDTAVHYCAKEGYSGYDFSSPQRYYHYTLDVWGQGTTVTVSS
chain 2: QSVLTQPPSASGTPGQRVTISCSGSISNIGSNTVNWYQHLPGTAPKLLIYSNNQRPSGVPDRFSGSRSGTSASLAISGLQSEDEADYYCAAWDDSLNCMVFGGGTKLTVL
B3: BD55-4281 (protein)
chain 1: QVQLVQSGAELKKPGSSVRVSCKAPGGSFSSYTISWVRQAPGQGLEWMGRVIPILDRSIYAQNFQGRVTITADKSTTTAYMEISSLRSDDTAVYYCARAEGTGWVGYAFDIWGQGTLVTVSS
chain 2: QSALTQPASVSGSPGQSITISCTGPISDVVTYDYVSWYQQRPGKAPRLMIYDVSQRPSGVSDRFSGSKSGNTASLTISGLQAEDEAHYYCTSYTRTTTLVVFGGGTKVTVV
B4: BD55-3721 (protein)
chain 1: QVQQQQWGAGLLKPSETLSLTCAVYGGSFSDYYWSWVRQPPGKGLEWIGEIIQSGSTNYNPSLKSRVTISVDTSKNQFSLKLSSVTAADTAVYYCARGRLVRGITWVPLDYWGQGALVTVSS
chain 2: DIQMTQSPSTLSTSVGDRVTITCRASQSVSSWLAWYQQKPGKAPKLLIYKASSLEDGVPSRFSGSGSGTEFTLTISSLQPDDFATYYCQQYNSYPRTFGHGTKVEIK
B5: BD55-1004 (protein)
chain 1: EVQLVESGGRLVQRGGSLRLSCAASGFRFNSYSMNWVRQAPGKGLEWVSYITSTSGTTYYADSVKGRFTISRDNAKNSLFLQMNSLRDEDTAVYFCARVLSPTYNDAFSGPDAFDLWGQGTRVTVSS
chain 2: B4 chain 2 with Q3R, T13A, V29I, S31P, S52F, D56S, S93N, P95E, R96W, H100Q
B6: BD55-3561 (protein)
chain 1: QVQLVESGGGVVQPGRSLRLSCAVSGFTFSDYGMHWVRQAPGKGMEWVAVIWFDGTNKYYADSVKGRFTISRDNSKNTLYLEMNSLRAEDTAVYYCTKSWVYKGTPYYFDYWGQGTLVTVSA
chain 2: EIVLTQSPVTLSLSPGERATLSCRASQNIRSSLAWYQHKPGQAPRLLIYDASNRATGIPDRFSGSGSGTDFTLTISSLEPEDFAVYFCQQRANWPPLTFGGGTKVEIK

Target: SARS-CoV-2 Omicron BA.1 spike pseudovirus
Experiment: pseudovirus neutralization IC50; higher = weaker neutralization
Description: (§1)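 Single-round VSV luciferase pseudovirus mixed with antibody dilutions for 1 h and put on Huh-7 cells for about a day; IC50 from the dose curve.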

| Binder | pseudovirus neutralization IC50 |
| --- | --- |
| B1 | > 10 µg/mL |
| B2 | > 10 µg/mL |
| B3 | > 10 µg/mL |
| B4 | 6.38 µg/mL |
| B5 | > 10 µg/mL |
| B6 | > 10 µg/mL |

Target: SARS-CoV-2 Omicron BA.2 spike pseudovirus
Experiment: as above
Description: as §1

| Binder | pseudovirus neutralization IC50 |
| --- | --- |
| B1 | > 10 µg/mL |
| B2 | > 10 µg/mL |
| B3 | > 10 µg/mL |
| B4 | > 10 µg/mL |
| B5 | > 10 µg/mL |
| B6 | > 10 µg/mL |

Target: SARS-CoV-2 Omicron BA.2.75 spike pseudovirus
Experiment: as above
Description: as §1

| Binder | pseudovirus neutralization IC50 |
| --- | --- |
| B1 | > 10 µg/mL |
| B2 | > 10 µg/mL |
| B3 | > 10 µg/mL |
| B4 | > 10 µg/mL |
| B5 | > 10 µg/mL |
| B6 | > 10 µg/mL |

Target: SARS-CoV-2 Omicron BA.5 spike pseudovirus
Experiment: as above
Description: as §1

| Binder | pseudovirus neutralization IC50 |
| --- | --- |
| B1 | > 10 µg/mL |
| B2 | > 10 µg/mL |
| B3 | > 10 µg/mL |
| B4 | > 10 µg/mL |
| B5 | > 10 µg/mL |
| B6 | > 10 µg/mL |

Target: SARS-CoV-2 Omicron BQ.1.1 spike pseudovirus
Experiment: as above
Description: as §1

| Binder | pseudovirus neutralization IC50 |
| --- | --- |
| B1 | > 10 µg/mL |
| B2 | > 10 µg/mL |
| B3 | > 10 µg/mL |
| B4 | > 10 µg/mL |
| B5 | > 10 µg/mL |
| B6 | > 10 µg/mL |

Target: SARS-CoV-2 Omicron XBB spike pseudovirus
Experiment: as above
Description: as §1

| Binder | pseudovirus neutralization IC50 |
| --- | --- |
| B1 | > 10 µg/mL |
| B2 | > 10 µg/mL |
| B3 | > 10 µg/mL |
| B4 | > 10 µg/mL |
| B5 | > 10 µg/mL |
| B6 | > 10 µg/mL |

Target: SARS-CoV-2 early D614G spike pseudovirus
Experiment: as above
Description: as §1

| Binder | pseudovirus neutralization IC50 |
| --- | --- |
| B1 | > 10 µg/mL |
| B2 | 1.61 µg/mL |
| B3 | 0.016 µg/mL |
| B4 | 0.0314 µg/mL |
| B5 | 0.731 µg/mL |
| B6 | > 10 µg/mL |

From the supplement of paper PMC9931576
